According to publication PMC12714728 (npj Viruses, 2025):

Biological target: hemagglutinin (HA) ectodomain of A/New Caledonia/20/1999 (H1N1) (influenza A virus A/New …, biotin on the BirA site)
Test: SPR
Conditions: both partners purified

Question: Which results are given for CYRDPLGVAGEMC (disulfide between the two Cys (sidechain-sidechain cyclization)) [cyclic peptide CP13]?
Answer: koff: 1.09 s⁻¹; kon: 28400 M⁻¹ s⁻¹
